Anti-infective test results gathered from many reports (values: NIAID ChemDB through PubChem).

All rows: whole-cell or culture tests; agent: Varicella zoster virus; measure: EC50

Blank or dashed fields: not listed here. Neighbouring rows are from separate reports. ECn is the concentration giving n% inhibition of infection, replication or growth.

compound,read by,cells,strain or isolate,result
O=[N+]([O-])c1cc([C@H]2C[C@H](O)[C@@H](CO)O2)c(F)cc1F,plaque count,HEL,TK+/YS,78 µM
Nc1nc2c(ncn2C[C@@H](CO)CCO)c(=O)[nH]1,cytopathic effect / ELISA,HEL,9/84-A,>100 µM
CCN(CC)CC(=O)Nc1ccc(NC(=S)Nc2ccc(NC(C)=O)cc2)cc1Cl,ELISA,HFF,ELLEN,>10 µg/mL
Nc1ncc2ncn(/C=C3/CC3CO)c2n1,ELISA,-,-,>100 µM
O=C(O)P(=O)(O)O,cytopathic effect,HEL,Oka BVDU-resistant,49.3 µM
C[C@H](NC(=S)Nc1ccc(NC(=O)c2csnn2)cn1)c1cc(C(F)(F)F)cc(C(F)(F)F)c1,ELISA,HFF,ELLEN,>7.5 µg/mL
Cc1cccn2c(C3OCCO3)cnc12,-,HEL,YS/R,>1000 µM
OC[C@H]1O[C@H](c2ccc(F)cc2F)C[C@@H]1O,plaque count,HEL,TK+/YS,>200 µM
Nc1nc2c(ncn2CCC(CO)CO)c(=O)[nH]1,cytopathic effect,HEL,Oka CF1743-resistant,43.6 µM
Cc1cc([C@@H]2C[C@H](O)[C@@H](CO)O2)c(Cl)cc1F,plaque count,HEL,(TK-)/YS/R,>200 µM
O=c1[nH]c(=O)n([C@@H]2C[C@H](CO)C[C@H]2CO)cc1I,-,HEL,YS/R (TK-),>100 µg/mL
Nc1nc2c(ncn2CCCC(CO)CO)c(=O)[nH]1,cytopathic effect / ELISA,HEL,9/84 + PER + ULF + BIR + Y,17.8 µM
O=C(NCc1ccc(Cl)cc1)c1c[nH]c2ccc(C#CCO)cc2c1=O,plaque count,-,MAG,0.4 µM
O=c1ccn([C@@H]2O[C@H](/C=C/C=C(Br)Br)[C@@H](O)[C@H]2O)c(=O)[nH]1,-,HEL,YS/R,>120 µM
COc1cc(NC(=O)c2ccccc2F)ccc1NC(=S)NC1=CC(Cl)C(C)(OC)C=C1,ELISA,HFF,ELLEN,>10 µg/mL
Cc1ccn2c(C(SCCc3ccccc3)SCCc3ccccc3)cnc2c1,-,HEL,OKA,>1000 µM
Nc1nc2c(ncn2COC2COP(=O)(O)OC2)c(=O)[nH]1,cytopathic effect / ELISA,HEL,9/84 + PER + ULF + BIR + Y,8.2 µM
O=c1ccn([C@@H]2C[C@H](CO)C[C@H]2CO)c(=O)[nH]1,-,HEL,YS/R (TK-),>100 µg/mL
CC(NC(=S)Nc1ccc(NC(=O)c2ccccc2F)cc1C#N)c1ccc(F)cc1,ELISA,HFF,JAB1233,0.23 µg/mL
Nc1nc2c(ncn2CC(CO)CCO)c(=O)[nH]1,cytopathic effect / ELISA,HEL,9/84,1 µM
Cn1cc(C(=O)NCc2ccc(Cl)cc2)c(=O)c2cc(CN3CCOCC3)ccc21,plaque count,HFF,ST varicella isolate,0.4 µM
Cc1ccn2c(C3SCCS3)cnc2c1,-,HEL,YS,>1000 µM
O=c1[nH]c(=O)n([C@H]2C[C@H](O)[C@@H](CO)O2)cc1I,plaque count,HEL,YS,0.3 µg/mL
O=C(Nc1ccc(NC(=S)Nc2cc3ccccc3o2)cc1)c1nccc2ccccc12,ELISA,HFF,ELLEN,0.05 µg/mL
COc1cc(OC)c(NC(=S)Nc2ccc(NC(C)=O)cc2)cc1Cl,ELISA,HFF,ELLEN,>10 µg/mL
N#Cc1cc([C@H]2C[C@H](O)[C@@H](CO)O2)c(F)cc1F,plaque count,HEL,(TK-)/YS/R,>200 µM
Cc1ccn2c(C3OCCS3)cnc2c1,-,HEL,Strain 07/1,>1000 µM
O=c1[nH]c(=O)n([C@@H]2O[C@H](CO)[C@@H](O)[C@@H]2O)cc1/C=C/Br,plaque count,-,Kawaguchi acyclovir-resistant mutant A8,0.000103 µg/mL
CC(=O)Nc1ccc(NC(=S)Nc2ccc(N(C)CCO)c(Cl)c2)cc1,ELISA,HFF,ELLEN,>10 µg/mL
O=c1[nH]c(=O)n([C@H]2C[C@H](O)[C@@H](CO)O2)cc1/C=C/Br,plaque count,HEL,TK+/YS,0.008 µM
OC[C@H]1CC(n2cnc3c(NC4CC4)ncnc32)C[C@@H]1CO,-,HEL,YS/R (TK-),>100 µg/mL
Nc1nc2c(ncn2CCC(O)CO)c(=O)[nH]1,cytopathic effect / ELISA,HEL,9/84-C,>400 µM
COc1cc(OC)c(NC(=S)Nc2ccc(NC(=O)c3ccco3)cn2)cc1Cl,ELISA,HFF,ELLEN,>10 µg/mL
CCCCCCCCc1cc2cn([C@H]3C[C@H](F)[C@@H](CO)O3)c(=O)nc2o1,-,-,YS,>20 µM
O=C(Nc1ccc(NC(=S)NCCc2cc3ccccc3o2)cc1)c1cc2ccccc2o1,ELISA,HFF,ELLEN,0.2 µg/mL
O=c1[nH]c(=O)n([C@H]2C[C@H](O)[C@@H](CO)O2)cc1I,cytopathic effect / ELISA,HEL,9/84-C,>100 µM
Nc1ncc2c(ncn2/C=C2\CC2CO)n1,ELISA,-,-,>100 µM
COc1cc(OC)c(NC(=S)Nc2ccc(NC=O)cc2Cl)cc1Cl,ELISA,HFF,ELLEN,>10 µg/mL

For reference, 4 entries again:

compound,read by,cells,strain or isolate,result
CC(=O)Nc1ccc(NC(=S)Nc2ccc(N(C)CCO)c(Cl)c2)cc1,ELISA,HFF,ELLEN,>10 µg/mL
O=c1[nH]c(=O)n([C@H]2C[C@H](O)[C@@H](CO)O2)cc1/C=C/Br,plaque count,HEL,TK+/YS,0.008 µM
COc1cc(OC)c(NC(=S)Nc2ccc(NC=O)cc2Cl)cc1Cl,ELISA,HFF,ELLEN,>10 µg/mL
CCN(CC)CC(=O)Nc1ccc(NC(=S)Nc2ccc(NC(C)=O)cc2)cc1Cl,ELISA,HFF,ELLEN,>10 µg/mL